# Vif LAI: effect of single changes on growth against APOBEC3G

Values reported by Langley et al. 2025, preprint (doi:10.1101/2025.10.20.683452).

Protein: Vif of HIV-1 LAI (a laboratory-adapted subtype B strain). Residues 12-115 were scanned and are shown below; the first letter is residue 12.
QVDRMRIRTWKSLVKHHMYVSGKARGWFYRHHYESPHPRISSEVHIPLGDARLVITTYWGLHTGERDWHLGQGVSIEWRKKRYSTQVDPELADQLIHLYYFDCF

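Pooled viruses with one designed change each in Vif went through two 72 h rounds in SupT1 cells expressing APOBEC3G. Each of three replicates was sequenced after round two and set against the merged round-one pool. The overlap of vif with pol had been removed, so integrase is unaffected.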

Scale: log2 enrichment, wild type = 0; negative values mean that the variant was depleted.
A change reads original residue, position, new residue.
The median of three replicates is given.
Input reads are the counts in the merged round-one pool, before selection.
The scan is noisy: the rank correlation of replicates is about 0.4 to 0.65, and variants with under about 50 input reads tend to read too high.

mutation,input reads,median log2 enrichment
Y44L,346,-2.02
S86Y,712,-1.39
K26R,89,0.29
D61G,89,0.24
S53Q,741,-1.20
D99K,448,-3.79
K26A,715,-1.42
I18F,455,-3.18
M16R,478,-2.97
Y69T,306,-3.12
Y111Q,349,-2.99
R77E,418,-1.42
R17V,406,-2.85
L102K,63,-3.04
Y110N,550,-0.26
R41N,434,-2.17
R50A,716,-2.94
R19K,30,1.17
K92C,386,-1.54
R36T,35,0.48
T74R,93,-0.27
G71W,27,1.77
R90F,3141,-1.11
H80T,744,-2.64
I87F,481,-1.80
Q97T,16,-1.84
E88A,45,2.34
T67C,971,-2.81
D61A,266,-3.84
V65R,292,-1.86
G33T,756,-1.04
I18T,21,0.54
V98T,138,-1.85
W89V,40,-1.55
I57C,30,-0.43
A103L,182,-1.39
R19F,1427,0.29
M16D,276,-2.30
R19Q,575,-0.79
L106F,269,-0.12
F112N,257,-2.18
K26G,374,-1.16
T20N,30,0.54
R90W,413,0.50
Y30F,860,-1.14
P49R,89,0.08
V13T,148,-0.52
E54L,419,-4.00
H42N,199,1.26
T20I,426,-2.44
R90T,38,2.33
H27T,427,-0.79
Y111W,23,-0.04
T96R,76,0.43
L24D,1106,-2.97
S95R,560,0.52
V55G,275,-1.22
H80V,34,1.45
H43G,418,-4.18
E88G,315,-0.37
T68A,861,-2.06
G71S,601,-1.78
R41G,235,0.61
H80A,364,-3.47
I18S,22,-1.85
R15S,75,0.09
T96F,349,-0.01
D113A,887,-0.85
Y30I,1337,-1.87
Y110F,91,1.69
H42I,10437,-3.18
E101K,595,-2.52
P49E,36,1.16

The authors note that some positive scores may be noise, and some enriched variants failed when tested singly.
Some changes are missing from the data or left out.